Record: PubChem BioAssay AID504761 (Drosophila RNAi Screening Center, 2011)

Purpose: 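Genome-wide fly cell screen for genes dengue virus requires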 (primary screen)
Cells: D.Mel-2 cells from Drosophila
Reagents: long dsRNA against Drosophila genes
Challenge: infection with dengue virus type 2; dose and infection time not stated
Measured: 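Cells stained for dengue envelope protein and imaged; percent of infected cells per well on duplicate plates, ranked by infection, with stained nuclei counted for cell number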
Direction: infection score: higher = more virus-infected cells; cell count: higher = more cells in the well
Hit rule: 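Very low infection ranking in both replicate wells (chance probability at most 0.065), then a retest showing infection dropped 1.5-fold or more at p below 0.05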
Calls: active = confirmed: knock-down lowers infection; inactive = not picked or not confirmed
The deposit covers about 22,000 reagents; this is an unselected part of those with a known target gene and a result. Over the whole deposit, 116 (0.52%) are marked active. 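Calls depend on retest data that are not deposited; infection was ranked per plate without normalising between plates; the unit of the infection score is not given.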 Raw values are not corrected between plates. A plus sign joins genes that one reagent is predicted to hit. The record does not give: the amount of reagent, the time to read-out.

| gene | amplicon | infection score, replicate 1 | infection score, replicate 2 | cell count, replicate 1 | cell count, replicate 2 | Call |
| --- | --- | --- | --- | --- | --- | --- |
| CG3744 | DRSC15511 | 11.2 | – | 4718 | 285 | inactive |
| CG3744 | DRSC29964 | 15.8 | 7.16 | 5645 | 6105 | inactive |
| Dph3 (Diphthamide biosynthesis 3) | DRSC14923 | 4.93 | 2.7 | 6149 | 6530 | inactive |
| Dph3 (Diphthamide biosynthesis 3) | DRSC25545 | 10.9 | 16.2 | 6547 | 2883 | inactive |
| Mtap (Methylthioadenosine phosphorylase) | DRSC06890 | 4.2 | 5.16 | 7220 | 6843 | inactive |
| CG5681 | DRSC02876 | 9.39 | 4.27 | 5932 | 6532 | inactive |
| CG5681 | DRSC24022 | 1.59 | 6.11 | 6841 | 6318 | inactive |
| Rtel1 (Regulator of telomere elongation helicase 1) | DRSC18343 | 1.18 | 2.7 | 6681 | 6863 | inactive |
| Rtel1 (Regulator of telomere elongation helicase 1) | DRSC26293 | 22.4 | 8.32 | 5111 | 5840 | inactive |
| mth (methuselah) | DRSC08725 | 15.1 | 12.6 | 6849 | 6750 | inactive |
| MBD-R2 | DRSC14180 | 13.2 | 3.98 | 3874 | 5299 | inactive |
| TwdlW (TweedleW) | DRSC15540 | 7.85 | 11.8 | 6372 | 6152 | inactive |
| TwdlW (TweedleW) | DRSC25402 | 11.3 | 7.85 | 7073 | 6496 | inactive |
| CG42335 | DRSC14597 | 1.64 | 2.14 | 6709 | 5850 | inactive |
| CG42335 | DRSC15892 | 2.97 | 3.52 | 6872 | 6228 | inactive |
| CG42335 | DRSC25666 | 2.28 | 2.55 | 6748 | 6039 | inactive |
| asl (asterless) | DRSC12319 | 2.88 | 15.4 | 6900 | 5704 | inactive |
| CG15203 | DRSC19650 | 1.96 | 6.27 | 6675 | 6615 | inactive |
| Sfxn2 (Sideroflexin 2) | DRSC10718 | 2.87 | 6.06 | 5606 | 5116 | inactive |
| CG17726 | DRSC15255 | 2.98 | 2.05 | 6921 | 6970 | inactive |
| TfIIA-L (Transcription factor IIA L) | DRSC16882 | 3.98 | 6.67 | 327 | 5805 | inactive |
| CR40450 + CG32767 | DRSC18387 | 2.4 | 3.92 | 5912 | 6097 | inactive |
| Cyp6a13 (Cytochrome P450 6a13) | DRSC07375 | 10.5 | 6.68 | 5949 | 6243 | inactive |
| ari-2 (ariadne 2) | DRSC04672 | 26.1 | 21.1 | 5581 | 2161 | inactive |
| ari-2 (ariadne 2) | DRSC27896 | 3.88 | 24.2 | 7013 | 5752 | inactive |
| Psf3 (Partner of Sld Five 3) | DRSC18216 | 26.8 | 22.5 | 2531 | 3014 | inactive |
| Psf3 (Partner of Sld Five 3) | DRSC21487 | 2.18 | 18 | 5647 | 5118 | inactive |
| Surf1 (Surfeit 1) | DRSC11295 | 3.82 | 2.71 | 6232 | 5858 | inactive |
| Surf1 (Surfeit 1) | DRSC11394 | 11.8 | 6.6 | 6265 | 6511 | inactive |
| t (tan) | DRSC17815 | 2.65 | 3.63 | 6333 | 6663 | inactive |
| t (tan) | DRSC29460 | 18.4 | – | 5714 | 387 | inactive |
| lncRNA:iab4 (long non-coding RNA:iab4) | DRSC22331 | 3.16 | 4.07 | 5979 | 6737 | inactive |
| lncRNA:iab4 (long non-coding RNA:iab4) | DRSC26703 | 1.82 | 4.54 | 6194 | 6326 | inactive |
| Mst33A | DRSC03371 | 4 | 7.69 | 6556 | 6608 | inactive |
| Mst33A | DRSC27156 | 2.57 | 3.37 | 7204 | 7183 | inactive |
| CG18649 | DRSC10334 | 1.92 | 1.61 | 6141 | 6222 | inactive |
| CG7945 + yellow-k | DRSC10851 | 8.84 | 10.2 | 5692 | 3779 | inactive |
| CG14483 | DRSC06455 | 27.3 | 26.9 | 4922 | 6820 | inactive |
| CG3223 | DRSC15468 | 4.52 | 4.9 | 5997 | 6373 | inactive |
| CG3223 | DRSC28290 | 19.6 | 13.5 | 5319 | 4688 | inactive |
| side-VI (sidestep VI) | DRSC14920 | 3.36 | 11.1 | 6258 | 6413 | inactive |
| side-VI (sidestep VI) | DRSC23088 | 0.95 | 1.55 | 6013 | 6380 | inactive |
| side-VI (sidestep VI) | DRSC28883 | 9.36 | 11.1 | 5810 | 4516 | inactive |
| UQCR-11L (Ubiquinol-cytochrome c reductase 11 kDa subunit-like) | DRSC22166 | 14.2 | 7.48 | 6050 | 6055 | inactive |
| shakB (shaking B) | DRSC20585 | 4.95 | 4.27 | 5720 | 6049 | inactive |
| shakB (shaking B) | DRSC22817 | 0.54 | 2.17 | 6643 | 738 | inactive |
| shakB (shaking B) | DRSC26262 | 11.5 | 7.2 | 5928 | 6198 | inactive |
| CG33233 | DRSC08239 | 2.26 | 5.95 | 5891 | 5392 | inactive |
| HLH3B (Helix loop helix protein 3B) | DRSC18669 | 8.93 | 5.86 | 5813 | 6710 | inactive |
| HLH3B (Helix loop helix protein 3B) | DRSC25447 | 4.3 | 4.06 | 6378 | 6331 | inactive |
| Myo31DF (Myosin 31DF) | DRSC03376 | 6.43 | 12 | 6625 | 6386 | inactive |
| Myo31DF (Myosin 31DF) | DRSC22702 | 8.4 | 8.52 | 6928 | 2042 | inactive |
| Myo31DF (Myosin 31DF) | DRSC25363 | 8.67 | 4.54 | 5998 | 5841 | inactive |
| CG5180 | DRSC15731 | 2.19 | 7.44 | 6989 | 6301 | inactive |
| CG12104 | DRSC08254 | 6.24 | 10.5 | 6302 | 4244 | inactive |
| CG12104 | DRSC26773 | 3.86 | 8.93 | 6262 | 6560 | inactive |
| Gabat (gamma-aminobutyric acid transaminase) | DRSC10846 | 4.33 | 4.75 | 6212 | 6801 | inactive |
| Tango10 (Transport and Golgi organization 10) | DRSC19807 | 7.14 | 7.05 | 6109 | 7092 | inactive |
| Tango10 (Transport and Golgi organization 10) | DRSC26535 | 1.28 | 1.93 | 6402 | 6427 | inactive |
